Results of unrelated studies side by side (data: NIAID ChemDB).

All rows: enzyme or target tests; agent: Varicella zoster virus

An empty or dashed field is not shown.

| SMILES | strain or isolate | target | read-out | result |
|---|---|---|---|---|
| Nc1nc2c(ncn2COCCOP(=O)(O)OP(=O)(O)OP(=O)(O)O)c(=O)[nH]1 |  | DNA polymerase | IC50 | 0.007 µM |
| C[C@@H](O)Cn1cnc2c(Cl)nc(N)nc21 |  | Thymidine kinase | Ki | 1500 µM |
| Nc1ccn([C@H]2CC[C@@H](CO)O2)c(=O)n1 | Kanno-Kohmura (TK-) | Thymidylate synthetase | IC50 | >100 µM |
| Nn1cc(C(=O)NCc2ccc(Cl)cc2)c(=O)c2cc(CCCO)ccc21 |  | DNA polymerase | IC50 | 0.15 µM |
| C[C@@H](O)Cn1cnc2c(=S)nc(N)[nH]c21 |  | Thymidine kinase | Ki | 300 µM |
| COc1nc(Cl)nc2c1ncn2[C@@H]1O[C@H](CO)[C@@H](O)[C@@H]1O | OKA | Thymidine kinase | Ki | 930 µM |
| O=c1[nH]c(=O)n([C@@H]2CO[C@H](CO)O2)cc1/C=C/Br |  | Thymidine kinase | Ki | 125 µM |
| CN(C)n1cc(C(=O)NCc2ccc(Cl)cc2)c(=O)c2cc(C#CCO)ccc21 |  | DNA polymerase | IC50 | 0.53 µM |
| C[C@H](Cn1cnc2c(N)ncnc21)OCP(=O)(O)O | KANNO (TK+) | Thymidylate synthetase | IC50 | >100 µM |
| O=C(NCc1ccc(Cl)cc1)c1c[nH]c2c(F)cccc2c1=O |  | DNA polymerase | Ki | 2 µM |
| Nc1ncnc2c1ncn2C[C@@H](CO)OCP(=O)(O)O | KANNO (TK+) | Thymidylate synthetase | IC50 | >100 µM |
| C/C=C/c1cn([C@H]2C[C@H](O)[C@@H](CO)O2)c(=O)[nH]c1=O |  | Thymidine kinase | Ki | 0.3 µM |
| Nc1ccn([C@@H]2O[C@H](CO)[C@@H](O)[C@@H]2O)c(=O)n1 | Kanno-Kohmura (TK-) | Thymidylate synthetase | IC50 | >100 µM |
| CN(C)n1cc(C(=O)NCc2ccc(Cl)cc2)c(=O)c2cc(CN3CCOCC3)ccc21 |  | DNA polymerase | IC50 | 0.58 µM |
| NC1=NC2C(C=CN2CC(CO)CCOP(=O)(O)OP(=O)(O)OP(=O)(O)O)C(=O)N1 |  | DNA polymerase | Ki | 0.3 µM |
| Cn1cc(C(=O)NCc2ccc(Cl)cc2)c(=O)c2cc(/C=C\CO)cc(F)c21 | TYPE 2 | DNA polymerase | IC50 | 0.39 µM |
| CC(=O)/C=C/C(=O)N[C@@H](C)c1nc2scc(C)c2c(=O)o1 |  | Protease | IC50 | 1.6 µM |
| CN1CCN(n2cc(C(=O)NCc3ccc(Cl)cc3)c(=O)c3cc(CN4CCOCC4)ccc32)CC1 |  | DNA polymerase | IC50 | 0.34 µM |
| C[C@@H](O)Cn1cnc2c(Cl)ncnc21 |  | Thymidine kinase | Ki | 2700 µM |
| Nc1ccn(C[C@@H](CO)OCP(=O)(O)O)c(=O)n1 | KANNO (TK+) | Thymidylate synthetase | IC50 | >100 µM |
| O=C(NCc1ccc(Cl)cc1)c1n[nH]c2ccccc2c1=O |  | DNA polymerase | IC50 | 10.1 µM |

2 of the rows above, restated:

SMILES	strain or isolate	target	read-out	result
C[C@@H](O)Cn1cnc2c(Cl)ncnc21		Thymidine kinase	Ki	2700 µM
Nc1ncnc2c1ncn2C[C@@H](CO)OCP(=O)(O)O	KANNO (TK+)	Thymidylate synthetase	IC50	>100 µM

ICn: concentration for n% inhibition. Conditions beyond the fields shown may differ between rows.